Compound potency records, mixed from different reports. Data source: NIAID ChemDB in PubChem.

All rows: tests in culture; organism: Herpes simplex virus 1; cell line: VERO; read-out: inhibition

Conditions beyond the fields shown may differ between rows.

O=C(O)CP(=O)(O)O ; strain: TK- ; method: cytopathic effect ; dose: 71.4 µM ; value: >25%
NNC(N)=O ; strain: PH ; method: plaque count ; dose: 40 µM ; value: 0%
Nn1c(Nc2ccc(Cl)cc2)nc2sc3c(c2c1=O)CCCC3 ; method: plaque count ; dose: 0.3 µg/mL ; value: 20%
COc1cc2c(cc1-c1cc3cc4ccoc4cc3oc1=O)OCO2 ; strain: KOS ; method: plaque count ; dose: 50 µg/mL ; value: 26.1%
NC(=S)N/N=C/c1ccncc1 ; strain: PH ; method: plaque count ; dose: 40 µM ; value: 15%
Cc1ccccc1-n1c(O)c(N=O)c(=O)[nH]c1=O ; strain: Leningrad/248/88 ; method: cytopathic effect ; dose: 100 µg/mL ; value: 35%
O=C(O[C@@H]1Cc2c(O)cc(O)cc2O[C@@H]1c1ccc(O)c(O)c1)c1cc(O)c(O)c(O)c1 ; strain: 17 syn + ; method: MTT ; dose: 20 µM ; value: 81%
Nn1c(Nc2ccc(Cl)cc2)nc2sc3c(c2c1=O)CCC3 ; method: plaque count ; dose: 0.3 µg/mL ; value: 40%
C[C@]12CC[C@H](O)CC1=CC[C@@H]1[C@@H]2CC[C@]2(C)C(=O)CC[C@@H]12 ; method: antigen ; dose: 180 µM ; value: 92.8%
O=c1c(O)c(-c2ccc(O)c(O)c2)oc2cc(O)cc(O)c12 ; strain: TK- ; dose: 60 µg/mL ; value: 65%
Nc1nc2c(ncn2COC(CO)CO)c(=O)[nH]1 ; dose: 5 µM ; value: 98%
O=C(O[C@@H]1[C@@H](c2c(O)cc3c(c2O)C[C@@H](OC(=O)c2cc(O)c(O)c(O)c2)[C@@H](c2ccc(O)c(O)c2)O3)c2c(O)cc(O)cc2O[C@@H]1c1ccc(O)c(O)c1)c1cc(O)c(O)c(O)c1 ; strain: 17 syn + ; method: MTT ; dose: 20 µM ; value: 47%
CCOc1ccc(-n2c(O)c(N=O)c(=O)[nH]c2=O)cc1 ; strain: Leningrad/248/88 ; method: cytopathic effect ; dose: 100 µg/mL ; value: 30%
NC(=S)N/N=C\c1nccc2c(O)cccc12 ; strain: PH ; method: plaque count ; dose: 40 µM ; value: 35%
Nn1c(Nc2ccccc2)nc2sc3c(c2c1=O)CCCC3 ; method: plaque count ; dose: 0.3 µg/mL ; value: 30%
O=Nc1c(O)n(Cc2ccccc2)c(=O)[nH]c1=O ; strain: Leningrad/248/88 ; method: cytopathic effect ; dose: 100 µg/mL ; value: 35%
O=C(OCc1ccccc1)P(=O)(O)OC[C@H]1O[C@@H](n2cc(CCCl)c(=O)[nH]c2=O)C[C@@H]1O ; strain: BRAND ; method: cytopathic effect ; dose: 20.5 µM ; value: >25%
Oc1cc(O)c2c(c1)O[C@H](c1cc(O)c(O)c(O)c1)[C@@H](O)C2 ; strain: 17 syn + ; method: MTT ; dose: 200 µM ; value: 32%
CC1(C)S[C@@H]2[C@H](NC(=O)Cc3ccccc3)C(=O)N2[C@H]1C(=O)O ; method: plaque count ; dose: 500 µM ; value: 4%
COP(=O)(CC(=O)OC[C@H]1O[C@@H](n2cc(I)c(=O)[nH]c2=O)C[C@@H]1O)OC ; strain: TK- ; method: cytopathic effect ; dose: 198 µM ; value: >25%
Nc1nc2c(ncn2COCCO)c(=O)[nH]1 ; method: plaque count ; dose: 44 µM ; value: 92%

2 of the rows above, restated:

structure | strain | method | dose | value
Oc1cc(O)c2c(c1)O[C@H](c1cc(O)c(O)c(O)c1)[C@@H](O)C2 | 17 syn + | MTT | 200 µM | 32%
O=C(O[C@@H]1[C@@H](c2c(O)cc3c(c2O)C[C@@H](OC(=O)c2cc(O)c(O)c(O)c2)[C@@H](c2ccc(O)c(O)c2)O3)c2c(O)cc(O)cc2O[C@@H]1c1ccc(O)c(O)c1)c1cc(O)c(O)c(O)c1 | 17 syn + | MTT | 20 µM | 47%

Inhibition is in % at the dose shown (toxicity tests: loss of growth or viability).